Key:
[1] = target: A/Michigan/45/2015 H1 trimer (biotinylated, for BLI) (Influenza A virus A/Michigan/45/2015 …, strain, biotin on the avi tag (BirA)); conditions: both partners purified
[2] = target: A/Perth/16/2009 H3 trimer (biotinylated, for BLI) (Influenza A virus A/Perth/16/2009 (H3N2), strain, biotin on the avi tag (BirA)); conditions: both partners purified

B1: 09–1B12-UCA Fab (Lys-C digest of recombinant IgG, used for BLI) (Fab, V domains shown)
VH: QVQLVQSGAEVKKPGASVKVSCKASGYTFTSYGISWVRQAPGQGLEWMGWISAYNGNTNYAQKLQGRVTMTTDTSTSTAYMELRSLRSDDTAVYYCARGLLQGVVILDSYYYTMDVWGQGTTVTVSS
VL: not shown
- binding result [1]: no binding
- Kd [2]: 124 nM

— article PMC11096021 (Immunity, 2024)
